Record: PubChem BioAssay AID504761 (Drosophila RNAi Screening Center, 2011)
Test: 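Fly genes whose silencing reduces dengue virus type 2 infection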 (primary screen). Cell system: D.Mel-2 cells from Drosophila. Reagent: long dsRNA against Drosophila genes. Conditions: infection with dengue virus type 2; dose and infection time not stated. Measured: 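Per well on two replicate plates, imaging gave the percent of cells positive for viral envelope protein, ranked by infection, and a nuclear count of cells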. Scale: infection score: higher = more virus-infected cells; cell count: higher = more cells in the well. Hit rule: 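Low infection ranks in the two replicates (chance level up to 0.065) followed by a retest with a 1.5-fold or larger significant decrease, p below 0.05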. Meaning of the calls: active = confirmed: knock-down lowers infection; inactive = not picked or not confirmed.
The deposit covers about 22,000 reagents; below is a random part of those that have a named target and a result. Of all reagents, 116 (0.52%) are marked active. 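Calls depend on retest data that are not deposited; infection was ranked per plate without normalising between plates; the unit of the infection score is not given.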 Raw values vary from plate to plate and are shown uncorrected. A number with no mark means an inactive call. Names joined by + are all predicted targets of the reagent. Further read-outs or replicates are left out here. Not given: the amount of reagent, the time to read-out.

{"target gene": "Gar1", "dsRNA": "DRSC04441", "infection score, replicate 1": 14.8, "cell count, replicate 1": 3033}
{"target gene": "Gar1", "dsRNA": "DRSC25331", "infection score, replicate 1": 3.57, "cell count, replicate 1": 5682}
{"target gene": "CG17258", "dsRNA": "DRSC00495", "infection score, replicate 1": 2.59, "cell count, replicate 1": 6225}
{"target gene": "CG17258", "dsRNA": "DRSC22709", "infection score, replicate 1": 3.07, "cell count, replicate 1": 7243}
{"target gene": "CG17258", "dsRNA": "DRSC28524", "infection score, replicate 1": 7.67, "cell count, replicate 1": 3037}
{"target gene": "Dr", "dsRNA": "DRSC17002", "infection score, replicate 1": 10.2, "cell count, replicate 1": 6395}
{"target gene": "Dr", "dsRNA": "DRSC22708", "infection score, replicate 1": 1.49, "cell count, replicate 1": 6369}
{"target gene": "CG13516", "dsRNA": "DRSC04159", "infection score, replicate 1": 3.71, "cell count, replicate 1": 6177}
{"target gene": "SmydA-4", "dsRNA": "DRSC19390", "infection score, replicate 1": 2, "cell count, replicate 1": 6917}
{"target gene": "SmydA-4", "dsRNA": "DRSC21866", "infection score, replicate 1": 5.07, "cell count, replicate 1": 6748}
{"target gene": "SmydA-4", "dsRNA": "DRSC26517", "infection score, replicate 1": 1.83, "cell count, replicate 1": 5948}
{"target gene": "sotv + CG10731", "dsRNA": "DRSC05930", "infection score, replicate 1": 5.37, "cell count, replicate 1": 5268}
{"target gene": "sotv + CG10731", "dsRNA": "DRSC05997", "infection score, replicate 1": 10.5, "cell count, replicate 1": 6502}

An excerpt from above, reduced to “cell count, replicate 1”:
Gar1 [DRSC04441]: 3033
Gar1 [DRSC25331]: 5682
